{"source": "ChEMBL document CHEMBL1129527", "about": "“Synthesis, chromatographic resolution, and anti-human immunodeficiency virus activity of (+/-)-calanolide A and its enantiomers” (J Med Chem, 1996)", "experiment": "Inhibitory activity against TIBO-resistant HIV-1 RT Nucleic Acid polymerase; IA=inactive; call rule not given here", "data": [{"smiles": "CCCc1cc(=O)oc2c3c(c4c(c12)OC(C)(C)C=C4)O[C@@H](C)[C@H](C)[C@@H]3O", "note": "[COSTATOLIDE]", "values": [{"measurement": "IC50", "value": "Not Active"}]}]}
